Assay results taken from paper PMC11796224, “Merck Open Global Health Library in vitro screening against Schistosoma mansoni identified two new substances with antischistosomal activities for further development” (Parasites & Vectors, 2025).

How the values were obtained:
Assay type in all cases: cell-based, Schistosoma mansoni
S. mansoni couples [1] = assay: Single and double treatment with OGHL00022 and/or OGHL00121 (Giessen); conditions: single/double treatment experiment; for Motility score after 24 h: 10 µM each, n = 3, mean ± SD
adult S. mansoni couples [2] = assay: In vitro screening of OGHL compounds and analogues against adult S. mansoni couples (Giessen); conditions: 10 µM; for Egg production score: 24 h, normalised, compared to negative control (DMSO); for Attachment after 4 h / Attachment after 24 h / Pairing stability after 4 h / Pairing stability after 24 h: adult couples, Giessen team
[3] = test system: newly transformed schistosomula (NTS); assay: In vitro screening against newly transformed schistosomula (Basel); conditions: 10 µM, 72 h incubation, Basel team
[4] = test system: stem cell proliferation in S. mansoni couples; assay: EdU assay for stem cell proliferation; conditions: 10 µM, 24 h treatment, then 24 h EdU
adult S. mansoni couples [5] = assay: Determination of EC50 values for pairing stability, attachment and motility (Giessen); conditions: 2.5-50 µM
S. mansoni couples [6] = assay: Morphological analysis by confocal laser scanning microscopy (CLSM); conditions: 10 µM, 24 h after treatment
adult S. mansoni couples [7] = assay: In vitro screening against adult S. mansoni couples (Basel); conditions: 10 µM, 24 h incubation, Basel team
[8] = scale 0-4 (3 = normal activity)

For COc1ccc(CNc2nc(-c3ccc(C(=O)O)nc3)nc3sc4c(c23)CCCC4)cc1Cl, the “Motility score after 24 h” value (S. mansoni couples [1]; tested form: Na salt) was 2.4 ± 0.2, the “Attachment capacity after 24 h” value (S. mansoni couples [1]; 10 µM, biological triplicate, tested form: Na salt) was “detachment of all worms” and the Egg production score (adult S. mansoni couples [2]; tested form: Na salt) was 0%. For the same molecule, the “Attachment after 4 h” value (adult S. mansoni couples [2]; tested form: Na salt) was 100%, the “Attachment after 24 h” value (adult S. mansoni couples [2]; tested form: Na salt) was 63% and the “Pairing stability after 4 h” value (adult S. mansoni couples [2]; tested form: Na salt) was 100%. The “Pairing stability after 24 h” value (adult S. mansoni couples [2]; tested form: Na salt) was 20%, the “Motility score after 4 h” value (adult S. mansoni couples [2]; scale 0-4 (3 = normal activity), tested form: Na salt) was 3.0 and the “Activity against NTS” value ([3]; tested form: Na salt) was “not active”. For the same molecule, the “EdU-positive cells in the ovaries” value ([4]; tested form: Na salt) was “slight reduction in the ovaries”, the “EdU-positive cells in the testes” value ([4]; tested form: Na salt) was “complete reduction of EdU-positive cells in the testes” and the EC50 (adult S. mansoni couples [5]; read-out: EC50 attachment, 4 h after treatment, tested form: Na salt) was 12 µM. It also gave an EC50 (adult S. mansoni couples [5]; read-out: EC50 attachment, 24 h after treatment, tested form: Na salt) of 8.06 µM, an EC50 (adult S. mansoni couples [5]; read-out: EC50 motility, 4 h after treatment, tested form: Na salt) of 12.8 µM and an EC50 (adult S. mansoni couples [5]; read-out: EC50 motility, 24 h after treatment, tested form: Na salt) of 6.3 µM. For the same molecule, the EC50 (adult S. mansoni couples [5]; read-out: EC50 pairing stability, 4 h after treatment, tested form: Na salt) was 10.5 µM, the EC50 (adult S. mansoni couples [5]; read-out: EC50 pairing stability, 24 h after treatment, tested form: Na salt) was 7.09 µM and the “Morphological changes (tegument, gut, gonads) by CLSM” value (S. mansoni couples [6]; tested form: Na salt) was “no clear morphological changes”.

In the case of Clc1cccc(OCc2ncc3nccnc3n2)c1Cl, the “Motility score after 24 h” value (S. mansoni couples [1]) is reported as 2.5 ± 0.1, the Egg production (S. mansoni couples [1]; 10 µM, 24 h) is reported as “almost completely inhibited egg production” and the “Pairing stability after 24 h” value (S. mansoni couples [1]; 10 µM, biological triplicate) is reported as “complete separation”. The “Couples separated after 4 h” value (adult S. mansoni couples [2]) was greater than 50%, the Egg production score (adult S. mansoni couples [2]) was 0% and the “Attachment after 4 h” value (adult S. mansoni couples [2]) was 37%. For the same molecule, the “Attachment after 24 h” value (adult S. mansoni couples [2]) was 77%, the “Pairing stability after 4 h” value (adult S. mansoni couples [2]) was 13% and the “Pairing stability after 24 h” value (adult S. mansoni couples [2]) was 13%. The “Motility score after 4 h” value (adult S. mansoni couples [2]; [8]) was 1.4, the “Motility score after 24 h” value (adult S. mansoni couples [2]; [8]) was 1.9 and the “Activity against NTS” value [3] was “greater than 65%”. For the same molecule, the “EdU signals in males and females” value [4] was “almost no EdU signals in either males or females”, the EC50 (adult S. mansoni couples [5]; read-out: EC50 attachment, 4 h after treatment) was 9.29 µM and the EC50 (adult S. mansoni couples [5]; read-out: EC50 attachment, 24 h after treatment) was 10.9 µM. It also gave an EC50 (adult S. mansoni couples [5]; read-out: EC50 motility, 4 h after treatment) of 15.7 µM, an EC50 (adult S. mansoni couples [5]; read-out: EC50 motility, 24 h after treatment) of 18.8 µM and an EC50 (adult S. mansoni couples [5]; read-out: EC50 pairing stability, 4 h after treatment) of 7.81 µM. The EC50 (adult S. mansoni couples [5]; read-out: EC50 pairing stability, 24 h after treatment) was 5.96 µM, the “Activity on adult worms” value (adult S. mansoni couples [7]) was 46–55% and the “Morphological changes (tegument, gut, gonads) by CLSM” value (S. mansoni couples [6]) was “no clear morphological changes”.

Like-named read-outs stand apart in the source and are kept apart here.
